In one series the test system is E. coli. As to the kind of experiment: Mycothiol component levels by HPLC (mBBr and AccQ-Fluor labeling). Also on record: species or system Escherichia coli. The conditions noted are these: log phase.
The test system of another series is S. aureus. The series is described as above. The conditions noted are these: log phase. On the set-up: species or system Staphylococcus aureus.
The subject of series [1] is anti-MSH antibody. Briefly: ELISA of Example 10: biotinylated MSH captured by anti-MSH antibody prebound via protein A. It counts as binding, rabbit. (In an ELISA, binding on a coated surface is turned into a signal by an enzyme label.)
Series [2] concerns Mycobacterium smegmatis mc^26. Briefly: MSH in cell lysates by ELISA. Particulars: 40 μl.
Series [3] has as its system Mycobacterium smegmatis mc^26. Briefly: MSH in cell lysates by monobromobimane labeling and HPLC analysis. The conditions noted are these: HPLC.
In another series the test system is anti-mycothiol antibody. Briefly: ELISA of Example 4: thiol bound to maleimide-activated BSA, detected with affinity-purified anti-MSH antibody. Particulars: pure MSH in buffer. It counts as binding, rabbit. Here is the method:
Known amounts of pure MSH (typically from 0 to 1 pmol/well) were reacted with maleimide-activated BSA (Pierce); maleimide activation levels were 16-19 mol maleimide per mol BSA. The maleimide-activated BSA was reconstituted to 10 mg/ml and this stock solution stored at −70° C. until needed. The stock solution was diluted to a working concentration of 5 ng/μl just before use and kept chilled on ice. MSH from the concentrated stock solution in 0.1% TFA was diluted into TBS (Tris-buffered saline: 0.1 M Tris, pH 7.3, 0.15 M NaCl, 0.04% NaN3) on ice and the diluted samples (40 μl per well) immediately added to the maleimide-activated BSA (60 μl per well). A “zero” standard consisted of TBS in place of an MSH solution. In practice, 168 μl of thiol standard were added to 252 μl of maleimide-activated BSA solution. Samples of unknown thiol content were reacted with maleimide-activated BSA in the same manner, providing a small excess volume for pipetting of quadruplicate samples of 100 μl per well. […] The plate was read at 405 nm on a microplate reader (Model EL311, Bio-Tek Instruments) that was programmed to automatically subtract blank values read from wells that received only the blocking agent, wash solutions, p-nitrophenyl phosphate, and stop solution. […]

Series [4] relates to anti-MSH antibody. Briefly: ELISA of Example 8: biotinylated MSH captured on NeutrAvidin, detected with anti-MSH antibody. The series is classed as binding, rabbit.
Setting [5] is: 4.8 × 10^6 CFU analyzed, 100 μl.

The values that follow come from patent US6780418B1, “Reagents and immunoassay for the detection and quantitative determination of mycothiol and precursors thereof” (The Regents of the University of California, priority 1997, dated 2004).

With `CC(=O)N[C@@H](CS)C(=O)O` [AcCys, N-acetyl-cysteine], the Content in the series with E. coli is listed as <0.0006 μmol/g residual dry weight; with S. aureus, 0.002 μmol/g residual dry weight.

On to `CC(=O)N[C@@H](CS)C(=O)N[C@@H]1[C@@H](O)[C@H](O)[C@@H](CO)O[C@@H]1O` [AcCys-GlcN, 2-(N-acetyl-L-cysteinyl)amido-2-deoxy-α-d-glucopyranoside], for which the Content in the series with E. coli and with S. aureus was <0.004 μmol/g residual dry weight each time.

Turning to `N[C@@H](CS)C(=O)O` [Cys, L-cysteine], the Content with E. coli is on record as 0.09 μmol/g residual dry weight; in the series on S. aureus it was 0.35 μmol/g residual dry weight.

As for `N[C@@H](CS)C(=O)N[C@@H]1[C@@H](O)[C@H](O)[C@@H](CO)O[C@@H]1O` [Cys-GlcN, 2-(L-cysteinyl)amido-2-deoxy-α-D-glucopyranoside], the figures for the Content in the series with E. coli and in the series with S. aureus were <0.004 μmol/g residual dry weight and <0.03 μmol/g residual dry weight, respectively.

Consider `N[C@@H](CS)C(=O)N[C@H]1[C@@H](OC2[C@H](O)[C@H](O)C(O)[C@H](O)[C@H]2O)O[C@H](CO)[C@@H](O)[C@@H]1O` (stereo partly drawn) [Cys-GlcN-Ins, 1-D-myo-inosityl-2-(L-cysteinyl)amido-2-deoxy-α-D-glucopyranoside], for which the Content in the series on E. coli is on record as <0.004 μmol/g residual dry weight; with S. aureus, <0.05 μmol/g residual dry weight.

As for `N[C@H]1C(O)O[C@H](CO)[C@@H](O)[C@@H]1O` (stereo partly drawn) [GlcN, D-glucosamine], the Content in the series on E. coli is given as 0.024 μmol/g residual dry weight; in the series on S. aureus it was 0.027 μmol/g residual dry weight.

Turning to `N[C@H]1[C@@H](OC2[C@H](O)[C@H](O)C(O)[C@H](O)[C@H]2O)O[C@H](CO)[C@@H](O)[C@@H]1O` (stereo partly drawn) [GlcN-Ins, 1-D-myo-inosityl-2-amino-2-deoxy-α-D-glucopyranoside], the Content with E. coli and with S. aureus was <0.001 μmol/g residual dry weight each time.

With `S` [H2S], the Content with E. coli is 1.7 μmol/g residual dry weight; with S. aureus, 0.36 μmol/g residual dry weight.

For `CC(=O)N[C@@H](CS)C(=O)N[C@H]1[C@@H](OC2[C@H](O)[C@H](O)C(O)[C@H](O)[C@H]2O)O[C@H](CO)[C@@H](O)[C@@H]1O` (stereo partly drawn) [MSH, 1-D-myo-inosityl-2-(N-acetyl-L-cysteinyl)amido-2-deoxy-α-D-glucopyranoside], the values for the detection limit result in the series with anti-MSH antibody [1], in the series on anti-mycothiol antibody and in the series with anti-MSH antibody [4] were “at least 0.3 fmol”, “at least 0.1 pmol” and “at least 5 fmol”, respectively. The working range with anti-MSH antibody [1] (primarily dependent on development time) was in the range of 0.3 to 300 fmol. Also, the Content is given as <0.1 μmol/g residual dry weight with E. coli and <0.04 μmol/g residual dry weight in the series with S. aureus. Also, the “pmol MSH” value is recorded as 0.40 ± 0.04 (4) pmol in series [2] (3.9 × 10^4 CFU analyzed); 0.073 ± 0.011 (4) pmol in series [2] (7.7 × 10^3 CFU analyzed); 1.02 ± 0.08 (4) pmol in series [2] (7.7 × 10^4 CFU analyzed); 4 pmol in series [3] (3.0 × 10^5 CFU analyzed, 50 μl); 67 pmol in series [3] (setting [5]). Moreover, the “pmol/10^6 CFU” value in series [2] (3.9 × 10^4 CFU analyzed) was 10.2 ± 1.0 (4) pmol/10^6 CFU; in series [2] (7.7 × 10^3 CFU analyzed), 9.4 ± 1.5 (4) pmol/10^6 CFU; in series [2] (7.7 × 10^4 CFU analyzed) it was 13.3 ± 1.0 (4) pmol/10^6 CFU; in series [3] (3.0 × 10^5 CFU analyzed, 50 μl) it was 13.3 pmol/10^6 CFU; in series [3] (setting [5]), 14.0 pmol/10^6 CFU. Besides, the useful range in the series on anti-mycothiol antibody was in the range of 0.1 to 1 pmol; in the series on anti-MSH antibody [4] (dependent primarily on development time), 5 to 300 fmol.
